This experiment has as its system ten strains of E. coli. Briefly: Phenotype analysis (carbon source utilization) in ES MICROPLATE testing plates. Also: key: +: indicates that the organism tested was capable of utilizing the carbon source listed; −: indicates that the organism tested was not capable of utilizing the carbon source listed; indicates weak positive reactions. Format: cell-based, Escherichia coli. The note with it: 24 hours.
The mark [1] stands for this setting: E. coli strain 6320, W3110, 35° C.
Where [2] appears, read: E. coli strain 6321, MG1655, 35° C.
Setting [3] is: E. coli strain 6322, EMG2 (K12), 35° C.
Where [4] appears, read: E. coli strain 11547, O157:H7, 35° C.
The mark [5] stands for this setting: E. coli strain 13671, O157:H? gur+, 35° C.
Setting [6] is: E. coli strain 13673, O157:H?, 35° C.
[7] abbreviates: E. coli strain 13675, O157:H?, 35° C.
[8] abbreviates: E. coli strain 14443, MG1655 (FB426), 35° C.
The mark [9] stands for this setting: E. coli strain 14444, MG1655 xylA, 35° C.
Where [10] appears, read: E. coli strain 14445, MG1655 himA, 35° C.

Turning to Acetoactetic acid, the carbon source utilization result by setting is: under setting [1], “w”; under setting [2], “−”; under setting [3], “−”; under setting [4], “−”; under setting [5], “−”; under setting [6], “−”. In addition, the carbon source utilization result is, setting by setting: under setting [7], “−”; under setting [8], “−”; under setting [9], “−”; under setting [10], “−”.
In the case of M-inositol, the carbon source utilization result under setting [1] is “−”; the carbon source utilization entry under setting [2] is “−”; the carbon source utilization result under setting [3] is recorded as “−”; the carbon source utilization result under setting [4] was “−”; the carbon source utilization result under setting [5] is on record as “−”; the carbon source utilization entry under setting [6] is “−”. The carbon source utilization entry is “−” under setting [7], “−” under setting [8], “−” under setting [9] and “−” under setting [10].
On to M-tartaric acid, for which the carbon source utilization result under setting [1] was “−”; the carbon source utilization result under setting [2] is “−”; the carbon source utilization result under setting [3] is given as “−”; the carbon source utilization entry under setting [4] is on record as “w”; the carbon source utilization result under setting [5] is “+”; the carbon source utilization result under setting [6] is on record as “−”. Moreover, the carbon source utilization entry reads like this: under setting [7], “−”; under setting [8], “−”; under setting [9], “−”; under setting [10], “−”.
As to Tween-40, the carbon source utilization entry is given as “w” under setting [1]; “w” under setting [2]; “w” under setting [3]; “w” under setting [4]; “w” under setting [5]; “w” under setting [6]. In addition, the carbon source utilization entry under setting [7] is on record as “w”, the carbon source utilization entry under setting [8] was “−”, the carbon source utilization result under setting [9] is on record as “−” and the carbon source utilization entry under setting [10] is listed as “−”.
Turning to α-hydroxy-glutaric acid γ-lactone, the carbon source utilization entry reads like this: under setting [1], “−”; under setting [2], “w”; under setting [3], “−”; under setting [4], “w”; under setting [5], “−”; under setting [6], “−”. Besides, the carbon source utilization result is “w” under setting [7], “−” under setting [8], “−” under setting [9] and “−” under setting [10].

Source of the values: patent US9274101B2 (BIOLOG, Inc., priority 2001, dated 2016).
